Molecular target: Neuronal acetylcholine receptor subunit alpha-7 (Rattus norvegicus) (UniProt Q05941)
Assay: Inhibition of rat alpha7 nAChR expressed in Xenopus laevis oocytes assessed as inhibition of acetylcholine-induced current by measuring fold change by two electrode voltage-clamp assay relative to LvID
Conditions: Oocyte

Protein sequences, listed by entry. Tags and fused reporters are not part of them.
UniProt Q05941, whole entry, looked up: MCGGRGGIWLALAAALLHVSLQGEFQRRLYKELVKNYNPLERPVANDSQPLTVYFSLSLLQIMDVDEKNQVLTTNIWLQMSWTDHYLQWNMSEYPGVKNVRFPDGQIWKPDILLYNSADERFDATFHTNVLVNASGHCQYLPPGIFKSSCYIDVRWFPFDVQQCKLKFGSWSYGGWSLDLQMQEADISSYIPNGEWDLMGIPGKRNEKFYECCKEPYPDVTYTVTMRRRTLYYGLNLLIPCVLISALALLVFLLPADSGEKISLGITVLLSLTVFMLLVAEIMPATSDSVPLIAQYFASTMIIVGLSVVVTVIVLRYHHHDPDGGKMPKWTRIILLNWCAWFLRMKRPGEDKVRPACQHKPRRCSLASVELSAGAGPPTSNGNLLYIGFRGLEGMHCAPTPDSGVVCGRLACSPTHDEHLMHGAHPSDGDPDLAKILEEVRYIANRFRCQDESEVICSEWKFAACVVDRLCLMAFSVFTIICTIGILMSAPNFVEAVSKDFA

CC[C@H](C)[C@@H]1NC(=O)[C@H](CC(=O)O)NC(=O)[C@@H]2CCCN2C(=O)[C@H](CC(N)=O)NC(=O)[C@H](CCC(N)=O)NC(=O)[C@H](CC(C)C)NC(=O)[C@H]([C@@H](C)CC)NC(=O)[C@@H]2CSSC[C@H](NC(=O)C(N)CC(=O)O)C(=O)N[C@@H](CSSC[C@@H](C(N)=O)NC1=O)C(=O)N[C@@H](CO)C(=O)N[C@@H](C)C(=O)N1CCC[C@H]1C(=O)N1CCC[C@H]1C(=O)N2 (stereo partly specified)
fold change (FC): 2.6
